Pooled drug test results. Numbers come from NIAID ChemDB, via PubChem.

Shared fields: tests in culture; organism: Candida albicans; endpoint: MIC

a–b is a range or a potency band. Lines come from different laboratories, so protocols vary. Blank or dashed fields: not listed here.

smiles,strain or isolate,read by,result
C[C@H]1[C@H](O)[C@@H](C)/C=C/C=C/C=C/C=C/C=C/C=C/C=C/[C@H](O[C@@H]2O[C@H](C)[C@@H](O)[C@H](N)[C@@H]2O)C[C@@H]2O[C@](O)(C[C@@H](O)C[C@@H](O)CC[C@H](O)[C@@H](O)C[C@@H](O)CC(=O)O[C@H]1C)C[C@H](O)[C@H]2C(=O)O,73,-,0.24 µg/mL
N=C(N)c1ccc(CCc2cc3cc(C(=N)N)ccc3o2)cc1,-,-,30 µg/mL
O=C(Nc1ccc(Cl)cc1)c1ccccc1O,ATCC 44859,-,62.5 µM
O=C(N/N=C/c1ccc(Cl)cc1)c1cc(-c2ccc(Cl)cc2)nc2ccc(Cl)cc12,ATCC 10231,-,50–100 µg/mL
CCCCCCCCCCCCCCCCCC(=O)NC(CCCN)C(=O)NC(CCCN)C(=O)NC(CCCN)C(=O)NC(CCCN)C(=O)NC(CCCN)C(N)=O,ATCC 24433,broth dilution,3.1 µg/mL
CCCCCCCCC[C@@H]1CC(=O)NCC(=O)N[C@@H](Cc2cnc[nH]2)C(=O)N[C@@H](C(C)C)C(=O)N1,ATCC 24433,-,>32 µg/mL
CCCCCn1sc2ncccc2c1=S,-,-,20 µg/mL
CC(C)C(=O)CCC[C@H]1CO[C@@](Cn2cccc2)(c2ccc(F)cc2F)C1,CI-2,-,>100 µg/mL
C/C(=C\c1cc2cc(C(=N)N)ccc2o1)c1ccc(C(=N)N)cc1,-,-,60 µg/mL
CCCCCCCC(=O)NC(CCCN)C(=O)NC(CCCN)C(N)=O,ATCC 24433,broth dilution,>100 µg/mL
CC(C)C(=O)CCC[C@H]1CO[C@@](Cn2cncn2)(c2ccc(F)cc2F)C1,A.10231,-,>100 µg/mL
CCCCn1sc2ncccc2c1=O,-,-,20 µg/mL
Cc1cc(COc2ccc(Oc3ccc(Cl)cc3)cc2)n(O)c(=O)c1,TIMM0144,-,8 µg/mL
O=[N+]([O-])c1cccc(C=Nc2ccc(N3CCOCC3)cc2)c1,ATCC 2091,-,36 µg/mL
COc1cncc(-c2n[nH]c(-c3cnccn3)n2)n1,-,broth dilution,>256 µg/mL
Cc1c(O)cccc1C(=O)N[C@@H](CSc1ccccc1)[C@H](O)CN1C[C@H]2CCCC[C@H]2C[C@H]1C(=O)NC(C)(C)C,I67A,-,64 µg/mL
COc1ccc(C[C@H](N)C(=O)N[C@H]2[C@@H](O)[C@H](n3cnc4c(N)ncnc43)O[C@@H]2C(=O)NCC(=O)O)cc1,FP633,-,6.2 µg/mL
O=C(Nc1cccc(Cl)c1)c1ncccc1O,ATCC 44859,-,>125 µM
CC(C)C(=N)CCC=C1CO[C@@](Cn2ccnc2)(c2ccc(F)cc2F)C1,CI-2,-,100 µg/mL
CC(=O)Oc1cc(Cl)ccc1C(=O)Nc1ccc(C(F)(F)F)cc1,ATCC 44859,-,7.81 µg/mL
CC(C)C(=N)CCC[C@H]1CO[C@@](Cn2cncn2)(c2ccc(F)cc2F)C1,B02630,-,>100 µg/mL
CC(C)Cc1ccc(CC2=Cc3[nH][nH]c(=O)c3C(c3ccc(F)cc3)C2)cc1,-,agar diffusion,12.5 µg/mL
C(/C=C/c1ccccc1)=Nc1ccc(N2CCOCC2)cc1,ATCC 2091,-,28 µg/mL
CC(=O)Oc1c(Cl)cccc1C(=O)Nc1cccc(Cl)c1,ATCC 44859,-,31.25 µg/mL
O=C(N/N=C/c1ccc(Cl)cc1)c1cc(-c2ccccc2)nc2ccc(Cl)cc12,ATCC 10231,-,50–100 µg/mL
C(=Nc1ccc(N2CCOCC2)cc1)c1ccccc1,ATCC 2091,-,31 µg/mL
S=c1c2cccnc2sn1CCCc1ccccc1,-,-,30 µg/mL
CCCCCCCCCCC[C@@H]1CC(=O)NCC(=O)N[C@@H](CCCCN)C(=O)N[C@@H](C(C(C)C)C(C)(C)C)C(=O)N1,ATCC 24433,-,16 µg/mL
C=C1C(=O)ON(C)C1c1ccc(C)cc1,-,-,37.5 µg/mL
Nc1ncnc2c1ncn2[C@@H]1O[C@H](C(=O)O)[C@@H](NC(=O)[C@@H](N)Cc2cccnc2)[C@H]1O,FP633,-,25 µg/mL
N=C(N)c1ccc2cc(/C=C/c3cc4ccc(C(=N)N)cc4o3)oc2c1,-,-,60 µg/mL
C[C@@H]1Oc2ccccc2/C(=N/OCc2ccc(Cl)cc2)[C@H]1n1cncn1,ATCC 10231,-,8 µg/mL
O=c1[nH][nH]c2c1C(c1ccc(Cl)cc1)CC(Cc1ccc3ccccc3c1)=C2,-,agar diffusion,100 µg/mL
O=C(Nc1cccc(Cl)c1)c1ccccc1O,ATCC 44859,-,>62.5 µM
O=C(N/N=C/c1ccccc1)c1cc(-c2ccc(Cl)cc2)nc2ccccc12,ATCC 10231,-,50–100 µg/mL
CCCCCCCCCCC[C@@H]1CC(=O)NCC(=O)N[C@@H](CCCCN)C(=O)N[C@@H]([C@@H](C)CC)C(=O)N1,ATCC 24433,-,16 µg/mL
C[C@@H]1Oc2cc(Cl)ccc2/C(=N/OCc2ccc(Cl)cc2)[C@H]1n1ccnc1,ATCC 10231,-,0.5 µg/mL
CCCCCCCCC[C@@H]1CC(=O)NCC(=O)N[C@@H](CCCCNC)C(=O)N[C@@H](C(C)C)C(=O)N1,ATCC 24433,-,4 µg/mL
O=C(Nc1ccccc1)c1ncccc1O,ATCC 44859,-,250 µM
N=C(N)c1ccc(C2Cc3cc(C(=N)N)ccc3S2(=O)=O)cc1,-,-,>60 µg/mL
CCCCn1sc2ncccc2c1=S,-,-,30 µg/mL
Nc1ncnc2c1ncn2[C@@H]1O[C@H](C(=O)O)[C@@H](NC(=O)CCc2ccccc2)[C@H]1O,FP633,-,>100 µg/mL
O=C(Nc1ccc(C(F)(F)F)cc1)c1ncccc1O,ATCC 44859,-,125 µM
CCCCCCCCCCC[C@@H]1CC(=O)NCC(=O)N[C@@H](CCCCN)C(=O)N[C@@H](CC(C)C)C(=O)N1,ATCC 24433,-,8 µg/mL
COc1ccc(-c2cc(C(=O)N/N=C/c3ccc(Cl)cc3)c3cc(Cl)ccc3n2)cc1,ATCC 10231,-,50 µg/mL
COc1cc(Nc2nc3ccccc3nc2C(=O)O)cc(OC)c1OC,-,-,500 µg/mL
CC(=O)Oc1cc(Cl)ccc1C(=O)Nc1ccc(Cl)cc1,ATCC 44859,-,125 µg/mL
N[C@H]1CCC[C@H]1C(=O)O,83-2-14,-,5 µg/mL
C[C@@H]1Oc2ccccc2/C(=N/OCc2ccc(Cl)cc2Cl)[C@H]1n1cncn1,ATCC 10231,-,8 µg/mL
CCC/C=C/C=C/C=C/C(=O)OCC1O[C@@H](OC2C(CO)O[C@]3(OCc4cc(O)cc(O)c43)[C@H](O)[C@H]2OC(=O)/C=C/C=C/CC(O)/C=C/C=C/C=C/CCC)[C@H](O)[C@@H](O)[C@H]1O,A9540,-,0.2 µg/mL
CCCCCCCCCCCC(=O)NC(CCCN)C(=O)NC(CCCN)C(=O)NC(CCCN)C(=O)NC(CCCN)C(N)=O,ATCC 24433,broth dilution,6.25 µg/mL
C(=Nc1ccc(N2CCOCC2)cc1)c1ccco1,ATCC 2091,-,25 µg/mL
Nc1ncnc2c1ncn2[C@@H]1O[C@H](C(=O)O)[C@@H](NC(=O)c2ccccc2)[C@H]1O,FP633,-,>100 µg/mL
O=C(Nc1ccc(F)cc1)c1ccccc1O,ATCC 44859,-,62.5 µM
C[C@@H]1Oc2ccccc2/C(=N/OCc2ccc(Cl)cc2)[C@H]1n1ccnc1,ATCC 10231,-,2 µg/mL
Cc1nc(-c2cnccn2)[nH][n+]1-c1ccccc1,-,broth dilution,>256 µg/mL
CNc1ccc(C(=O)CC(O)CCC(C)C2OC(=O)CC(O)CC(=O)CC(O)CC(O)CC(O)CC(O)CC3(O)CC(O)C(C(=O)N4CCN(CCO)CC4)C(CC(O[C@@H]4O[C@H](C)[C@@H](O)[C@H](NC(=O)CN5CCN(CCO)CC5)[C@@H]4O)/C=C/C=C/C=C/C=C\C=C/C=C/C=C/C2C)O3)cc1,200,-,0.03 µg/mL
O=c1[nH][nH]c2c1C(c1ccc(Br)cc1)CC(Cc1ccc3ccccc3c1)=C2,-,agar diffusion,25 µg/mL
N=C(N)c1ccc(-c2[nH]c3cc(C(=N)N)ccc3c2N)cc1,-,-,>60 µg/mL
COc1ccc(-c2nc3ncccn3c2O)cc1,A,-,>125 µg/mL
c1ccc(CN=c2ssc3ncccc23)cc1,-,-,20 µg/mL
C[C@@H]1Oc2cc(Cl)ccc2/C(=N/OCc2ccc(Cl)cc2Cl)[C@H]1[n+]1cnc[nH]1,ATCC 10231,-,16 µg/mL
CC(C)Cc1ccc(CC2=Cc3[nH][nH]c(=O)c3C(c3ccc(Br)cc3)C2)cc1,-,agar diffusion,25 µg/mL
CCCCCCCCCCCCCCCCCC(=O)NC(CCCN)C(=O)NC(CCCN)C(=O)NC(CCCN)C(N)=O,ATCC 24433,broth dilution,6.25 µg/mL
Oc1c(-c2ccc(Cl)cc2)nc2ccccn12,A,-,>125 µg/mL
NC(=NNS(=O)(=O)c1ccccc1)c1cnccn1,-,broth dilution,>256 µg/mL
O=C(Nc1ccc(Cl)cc1)c1ncccc1S,ATCC 44859,-,>125 µM
S=c1c2cccnc2sn1CCc1ccccc1,-,-,30 µg/mL
CC(=O)Oc1c(Cl)cccc1C(=O)Nc1ccc(Cl)c(Cl)c1,ATCC 44859,-,3.91 µg/mL
NCCSC[C@@H](N)C(=O)N[C@H]1[C@@H](O)[C@H](n2cnc3c(N)ncnc32)O[C@@H]1C(=O)O,FP633,-,25 µg/mL
CC(=O)Oc1c(Cl)cccc1C(=O)Nc1ccc(Cl)cc1,ATCC 44859,-,31.25 µg/mL
Oc1c(-c2ccc(F)cc2)nc2ccccn12,A,-,>125 µg/mL
O=C(N/N=C/c1ccc(Br)cc1)c1cc(-c2ccccc2)nc2ccc(Cl)cc12,ATCC 10231,-,25–50 µg/mL
CCCCCCCCCC(=O)NC(CCCN)C(N)=O,ATCC 24433,broth dilution,>100 µg/mL
C=CCSCC(N)C(=O)N[C@H]1[C@@H](O)[C@H](n2cnc3c(N)ncnc32)O[C@@H]1C(=O)O,FP633,-,0.2 µg/mL
CNc1ccc(C(=O)CC(O)CCC(C)C2OC(=O)CC(O)CC(=O)CC(O)CC(O)CC(O)CC(O)CC3(O)CC(O)C(C(=O)NCCN(C)C)C(CC(O[C@@H]4O[C@H](C)[C@@H](O)[C@H](NC(=O)CN5CCN(CCO)CC5)[C@@H]4O)/C=C/C=C/C=C/C=C\C=C/C=C/C=C/C2C)O3)cc1,200,-,0.03 µg/mL
Cc1ccc(-c2cc(C(=O)N/N=C/c3ccccc3)c3cc(Cl)ccc3n2)cc1,ATCC 10231,-,50–100 µg/mL
C[C@@H]1Oc2ccccc2/C(=N/OCc2ccc(Br)cc2)[C@H]1n1ccnc1,ATCC 10231,-,8 µg/mL
COc1ccc(-c2cc(C(=O)N/N=C/c3ccccc3)c3ccccc3n2)cc1,ATCC 10231,-,100–200 µg/mL
Oc1c(-c2ccc(Cl)cc2Cl)nc2ccccn12,A,-,>125 µg/mL

Repeating the final 9 entries:

smiles	strain or isolate	read by	result
Oc1c(-c2ccc(F)cc2)nc2ccccn12	A	-	>125 µg/mL
O=C(N/N=C/c1ccc(Br)cc1)c1cc(-c2ccccc2)nc2ccc(Cl)cc12	ATCC 10231	-	25–50 µg/mL
CCCCCCCCCC(=O)NC(CCCN)C(N)=O	ATCC 24433	broth dilution	>100 µg/mL
C=CCSCC(N)C(=O)N[C@H]1[C@@H](O)[C@H](n2cnc3c(N)ncnc32)O[C@@H]1C(=O)O	FP633	-	0.2 µg/mL
CNc1ccc(C(=O)CC(O)CCC(C)C2OC(=O)CC(O)CC(=O)CC(O)CC(O)CC(O)CC(O)CC3(O)CC(O)C(C(=O)NCCN(C)C)C(CC(O[C@@H]4O[C@H](C)[C@@H](O)[C@H](NC(=O)CN5CCN(CCO)CC5)[C@@H]4O)/C=C/C=C/C=C/C=C\C=C/C=C/C=C/C2C)O3)cc1	200	-	0.03 µg/mL
Cc1ccc(-c2cc(C(=O)N/N=C/c3ccccc3)c3cc(Cl)ccc3n2)cc1	ATCC 10231	-	50–100 µg/mL
C[C@@H]1Oc2ccccc2/C(=N/OCc2ccc(Br)cc2)[C@H]1n1ccnc1	ATCC 10231	-	8 µg/mL
COc1ccc(-c2cc(C(=O)N/N=C/c3ccccc3)c3ccccc3n2)cc1	ATCC 10231	-	100–200 µg/mL
Oc1c(-c2ccc(Cl)cc2Cl)nc2ccccn12	A	-	>125 µg/mL